Results of unrelated studies side by side (data: NIAID ChemDB).

Common to all: growth or infection tests; agent: Mycobacterium fortuitum

MIC50, MIC90 and the like: level of inhibition, or share of isolates inhibited. An empty or dashed field is not shown. ECn: concentration that inhibits the pathogen or its effect by n%. Rows are shuffled and stem from different studies.

compound	strain or isolate	read-out	method	value
CC[C@H]1OC(=O)[C@H](C)[C@@H](O[C@H]2C[C@@](C)(OC)[C@@H](O)[C@H](C)O2)[C@H](C)[C@@H](O[C@@H]2O[C@H](C)C[C@H](N(C)C)[C@H]2O)[C@](C)(OC)C[C@@H](C)C(=O)[C@H](C)[C@@H](O)[C@]1(C)O	25 isolates	MIC50		>8 µg/mL
CN(C)C(=O)CC(CSc1ccccc1)Nc1c(C(=O)N/N=C/c2cccnc2)cnc2cc(F)ccc12	ATCC 19542	MIC	resazurin	10 µg/mL
Cc1noc2ncn(/N=C/c3ccc([N+](=O)[O-])cc3)c(=O)c12	PCM 672	MIC90	resazurin	62.5 µg/mL
CN[C@@H]1[C@H](O[C@H]2[C@H](O[C@H]3[C@H](O)[C@@H](O)[C@H](N=C(N)N)[C@@H](O)[C@@H]3N=C(N)N)O[C@@H](C)[C@]2(O)C=O)O[C@@H](CO)[C@H](O)[C@H]1O	31 isolates	MIC50		>64 µg/mL
CO[C@@]1(NC(=O)C(C(=O)O)c2ccc(O)cc2)C(=O)N2C(C(=O)O)=C(CSc3nnnn3C)CO[C@@H]21	1045	MIC		>100 µg/mL
Cc1noc2ncn(/N=C/c3ccc(Cl)c(Cl)c3)c(=O)c12	PCM 672	MIC90	resazurin	>100 µg/mL
CC1CN(c2cc3c(cc2F)c(=O)c(C(=O)O)cn3-c2ccc(F)cc2F)CCN1	25 isolates	MIC50		2 µg/mL
Cc1noc(N)c1C(=O)N/N=C/c1ccc(Cl)c(Cl)c1	PCM 672	MIC90	resazurin	62.5 µg/mL
CSCCC/C=N/NC(=O)c1cnc2cc(F)ccc2c1NC(CSc1ccccc1)CC(=O)N(C)C	ATCC 19542	MIC	resazurin	>100 µg/mL
CC1COc2c(N3CCN(C)CC3)c(F)cc3c(=O)c(C(=O)O)cn1c23	25 isolates	MIC50		2 µg/mL
COc1ccc(/C=N/NC(=O)c2cnc3cccc(C(F)(F)F)c3c2NC(CSc2ccccc2)CC(=O)N(C)C)cc1	ATCC 19542	MIC	resazurin	>100 µg/mL
CC1COc2c(N3CCN(C)CC3)c(F)cc3c(=O)c(C(=O)O)cn1c23	NCTC 10394	MBC		4 µg/mL
Cc1c(F)c(N2CCNC(C)C2)cc2c1c(=O)c(C(=O)O)cn2C1CC1	20 strains	MIC50		6.25 µg/mL
NC[C@H]1O[C@H](O[C@H]2[C@H](O)[C@@H](O[C@H]3O[C@H](CO)[C@@H](O)[C@H](N)[C@H]3O)[C@H](N)C[C@@H]2N)[C@H](O)[C@@H](O)[C@@H]1O	31 isolates	MIC50		64 µg/mL
C[C@@H]1CN(c2c(F)c(N)c3c(=O)c(C(=O)O)cn(C4CC4)c3c2F)C[C@H](C)N1	ATCC 6841	MBC		0.3 µg/mL
CCc1cc(C(N)=S)ccn1	198 strains	EC50	agar	>5 µg/mL
Cc1noc2nc(C)n(/N=C/c3ccc(Cl)c(Cl)c3)c(=O)c12	PCM 672	MIC90	resazurin	>100 µg/mL
COc1ccc(/C=N/NC(=O)c2cnc3cc(F)ccc3c2NC(CSc2ccccc2)CC(=O)N(C)C)cc1	ATCC 19542	MIC	resazurin	>100 µg/mL
COc1c(N2CCNC(C)C2)c(F)cc2c(=O)c(C(=O)O)cn(C3CC3)c12	20 strains	MIC90		0.78 µg/mL
Cc1noc2nc(C)n(/N=C/c3ccc(Cl)cc3)c(=O)c12	PCM 672	MIC90	resazurin	>100 µg/mL
CC[C@H]1OC(=O)[C@H](C)[C@@H](O[C@H]2C[C@@](C)(OC)[C@@H](O)[C@H](C)O2)[C@H](C)[C@@H](O[C@@H]2O[C@H](C)C[C@H](N(C)C)[C@H]2O)[C@](C)(O)C[C@@H](C)C(=O)[C@H](C)[C@@H](O)[C@]1(C)O	25 isolates	MIC50		>8 µg/mL
CCCCCCCC/C=N/NC(=O)c1cnc2cccc(C(F)(F)F)c2c1NC(CSc1ccccc1)CC(=O)N(C)C	ATCC 19542	MIC	resazurin	5 µg/mL
CN1CCN(c2cc3c(cc2F)c(=O)c(C(=O)O)cn3C2CC2)CC1	16 isolates	MIC50		0.125 µg/mL
Cc1noc(N)c1C(=O)N/N=C/c1ccc(C(F)(F)F)cc1	PCM 672	MIC90	resazurin	62.5 µg/mL
NC[C@H]1O[C@H](O[C@H]2[C@H](O)[C@@H](O[C@H]3O[C@H](CO)[C@@H](O)[C@H](N)[C@H]3O)[C@H](N)C[C@@H]2N)[C@H](N)C[C@@H]1O	31 isolates	MBC90		>64 µg/mL
Clc1ccc2c(c1)nc1cc(Nc3ccccc3)c(=NC3CCCCC3)cc-1n2-c1ccccc1	6842 ATCC	MIC		10 µg/mL
Cc1noc2ncn(/N=C/c3ccc(C(F)(F)F)cc3)c(=O)c12	PCM 672	MIC90	resazurin	>100 µg/mL
CN(C)C(=O)CC(CSc1ccccc1)Nc1c(C(=O)N/N=C/c2ccccc2F)cnc2cc(F)ccc12	ATCC 19542	MIC	resazurin	5 µg/mL
CN1CCN(c2c(F)cc3c(=O)c(C(=O)O)cn(CCF)c3c2F)CC1	18367	MIC50		1.56 µg/mL
CN(C)C(=O)CC(CSc1ccccc1)Nc1c(C(=O)N/N=C/c2cc(F)ccc2O)cnc2cccc(C(F)(F)F)c12	ATCC 19542	MIC	resazurin	>100 µg/mL
Cc1noc2ncn(/N=C/c3ccncc3)c(=O)c12	PCM 672	MIC90	resazurin	>100 µg/mL

A second listing of 3 rows from above:

{"compound": "COc1ccc(/C=N/NC(=O)c2cnc3cccc(C(F)(F)F)c3c2NC(CSc2ccccc2)CC(=O)N(C)C)cc1", "strain or isolate": "ATCC 19542", "read-out": "MIC", "method": "resazurin", "value": ">100 µg/mL"}
{"compound": "CSCCC/C=N/NC(=O)c1cnc2cc(F)ccc2c1NC(CSc1ccccc1)CC(=O)N(C)C", "strain or isolate": "ATCC 19542", "read-out": "MIC", "method": "resazurin", "value": ">100 µg/mL"}
{"compound": "CCc1cc(C(N)=S)ccn1", "strain or isolate": "198 strains", "read-out": "EC50", "method": "agar", "value": ">5 µg/mL"}